Columns and labels:
Coccomyxa actinabiotis [1] = assay: Kinetics of binding and incorporation of silver by algae with or without mucilage; type: cell-based
Procedure: Two series of experiments were carried out: one with algae having a coating of mucilage, the thickness of which, evaluated by optical microscopy, is about 1 μm or more (“algae with mucilage”), the other with algae cultured in BBM medium and having little or no mucilage (“algae without mucilage”).
20 mg of algae (compacted fresh mass) and 90 ml of solution of Ag^+ at various concentrations are introduced into Erlenmeyer flasks. The 20 mg of algae are prepared as follows: sample taken from a round-bottomed culture flask, centrifugation for 20 minutes at 3000 rpm, washing twice in demineralized water (suspension, centrifugation). The culture medium is thus removed and there is no risk of it complexing the silver.
The algae without mucilage are brought into contact with solutions containing 0.11 mg/L and 5.5 mg/L of Ag^+.
The algae with mucilage are brought into contact with solutions containing 22 μg/L, 1.1 mg/L and 55 mg/L of Ag^+.
The Erlenmeyer flasks are placed on illuminated shakers and samples of 5 ml are taken for various exposure times in order to monitor the binding kinetics for each of the initial concentrations of silver. The samples are centrifuged for 10 minutes at 4500 rpm in order to separate the algae which have concentrated the metal. The metal content is then analyzed in the pellet (algae) and in the supernatant.

Coccomyxa actinabiotis [2] = assay: Maximum metal concentrations bound (BBM medium diluted 10 times); type: cell-based; conditions: 6.7×10^−4 mol silver per gram of alga, BBM diluted 10 times

## [Ag] [silver]
Coccomyxa actinabiotis [1]; algae with mucilage, initial concentration 1.1 mg/l
  silver bound at the plateau: all
Coccomyxa actinabiotis [1]; algae without mucilage, initial concentration 0.11 mg/l
  silver bound at the plateau: all
Coccomyxa actinabiotis [2]
  silver bound per gram of fresh mass: up to 43.7 mg
  silver bound, dry mass: approximately 450 mg/g

— patent US8673620B2, “Radioresistant alga of the Coccomyxa genus” (priority 2010, dated 2014)
